The record followed here is patent US10077287B2 (priority 2014, dated 2018).

This series in a line: general procedure: solution-phase peptide synthesis; HATU/DIEA.

Substance “1-((S)-3-(4-aminophenyl)-2-(2-((5R,7R,10S)-10-((S)-sec-butyl)-7-isopropyl-12-((R)-1-methylpiperidin-2-yl)-3,9,12-trioxo-8-propyl-4-oxa-2,8,11-triazadodecan-5-yl)thiazole-4-carboxamido)propyl)cyclopropanecarboxylic acid” displayed a step yield (late stage modification step) of 47%.
In the case of “(S)-4-(2-((3R,6S,9R,11R)-6-((S)-sec-butyl)-3,9-diisopropyl-4,7,13-trioxo-8-propyl-12-oxa-2,5,8-triazatetradecan-11-yl)thiazole-4-carboxamido)-2,2-dimethyl-5-phenylpentanoic acid”, the step yield (late stage modification step, TFA salt) is listed as 62%.
Substance “(S)-5-(4-aminophenyl)-4-(2-((5R,7R,10S)-10-((S)-sec-butyl)-7-isopropyl-12-((R)-1-methylpiperidin-2-yl)-3,9,12-trioxo-8-propyl-4-oxa-2,8,11-triazadodecan-5-yl)thiazole-4-carboxamido)-2,2-dimethylpentanoic acid” displayed a step yield (late stage modification step) of 37%.
“(S)-5-(4-nitrophenyl)-4-(2-((5R,7R,10S)-10-((S)-sec-butyl)-7-isopropyl-12-((R)-1-methylpiperidin-2-yl)-3,9,12-trioxo-8-propyl-4-oxa-2,8,11-triazadodecan-5-yl)thiazole-4-carboxamido)-2,2-dimethylpentanoic acid” yielded a step yield (coupling step) of 56%.
In the case of “methyl 1-((S)-3-(4-aminophenyl)-2-(2-((5R,7R,10S)-10-((S)-sec-butyl)-7-isopropyl-12-((R)-1-methylpiperidin-2-yl)-3,9,12-trioxo-8-propyl-4-oxa-2,8,11-triazadodecan-5-yl)thiazole-4-carboxamido)propyl)cyclopropanecarboxylate”, the step yield (late stage modification step) worked out at 59%.
